Anti-infective test results gathered from many reports (values: NIAID ChemDB through PubChem).

Shared fields: tests in culture; species: HIV-1; endpoint: EC50

Rows are shuffled and stem from different studies. a–b is a range or a potency band. Blank or dashed fields: not listed here. ECn is the concentration giving n% inhibition of infection, replication or growth.

structure | mutations | read by | cells | strain or isolate | result
COc1cc(Cl)ccc1OCCN(C)c1ccc(-c2cnc(C)c([C@H](OC(C)(C)C)C(=O)O)c2N2CCC(C)(C)CC2)nc1 |  | luminescence | MT-2 | NL4-3 | 0.0016 µM
CC(C)C1=C2[C@H]3CC[C@@H]4[C@@]5(C)CC[C@H](OC(=O)[C@H]6C[C@@H](C(=O)O)C6(C)C)C(C)(C)[C@@H]5CC[C@@]4(C)[C@]3(C)CC[C@@]2([C@@H](O)CNC(=O)c2ccncc2)CC1=O |  | p24 / ELISA | MT-2 | 92HT599 | <1 µM
CCC(=O)c1ccc(F)c([C@@H]2C[C@@H]2NC(=O)Nc2ccc(C#N)cn2)c1O | NNRTI-resistant (RT P225H) | β-galactosidase / luminescence | TZM-bl | LAI | 0.00076 µM
C#C[C@@]1(CO)C=C[C@H](n2cc(C)c(=O)[nH]c2=O)O1 | M41L/D67N/K70R/M184V/L210W/T215Y/K219E | recombinant virus assay | MT-2 | Clinical isolate | 6.137 µM
Cc1cc(C#N)cc(C(=O)c2cc(Cl)ccc2OCC(=O)Nc2cnc(S(N)(=O)=O)cc2C)c1 | RT-Y181C | cytopathic effect / propidium iodide | MT-4 | Nevirapine-resistant (RT Y181C) | <0.01 µM
CCCc1cc(=O)oc2c3c(c4c(c12)OC(C)(C)CC4)O[C@@H](C)[C@H](C)[C@@H]3O | RT-L100I T139I | XTT | CEM + CEM-SS | Costatolide-resistant (RT L100I T139I) | >27 µM
Cc1ncc(-c2ccc(OCCCCF)cn2)c(N2CCC(C)(C)CC2)c1[C@H](OC(C)(C)C)C(=O)O |  | luminescence | MT-2 | NL4-3 | 0.0017 µM
C[C@H](Cn1cnc2c(N)ncnc21)OCP(=O)(O)O | M41L/D67N/K70R/A98G/K101E/M184V/G190A/L210W/T215Y/K219E | recombinant virus assay | MT-2 | Clinical isolate | >0.412 µM
Cc1cc2cn[nH]c2cc1NC(=O)COc1ccc(Cl)cc1C(=O)c1cccc(C#N)c1 | RT-V106I | β-galactosidase | HeLa + HELA CD4+ | HXB2 | <0.01 µM
CC(C)C1=C2[C@H]3CC[C@@H]4[C@@]5(C)CC[C@H](OC(=O)[C@H]6C[C@@H](C(=O)O)C6(C)C)C(C)(C)[C@@H]5CC[C@@]4(C)[C@]3(C)CC[C@@]2([C@@H](O)CN[C@H](C)c2ccccc2)CC1=O |  | p24 / ELISA | MT-2 | 92HT599 | <1 µM
Cc1ccc(C)n1-c1ccc(C(=O)O)c(O)c1 |  | luciferase / cell fusion | PBMC/5.25M7 | SF162 R5 CLADE B | 20.61 µM
CC(C)C1=C2[C@H]3CC[C@@H]4[C@@]5(C)CC[C@H](OC(=O)[C@H]6C[C@@H](C(=O)O)C6(C)C)C(C)(C)[C@@H]5CC[C@@]4(C)[C@]3(C)CC[C@@]2([C@@H](O)CNC(=O)c2ccc(Cl)cc2O[C@H]2CCOC2)CC1=O |  | p24 / ELISA | MT-2 | 92HT599 | <1 µM
CN1c2ccccc2C2C1C=C(C#N)C(=O)N2c1ccc([N+](=O)[O-])cc1 |  | GFP / fluorescence | HeLa | D-92UG046 | 0.21 µM
Cc1cc(C)cc(C(=O)c2cc(Cl)ccc2OCC(=O)Nc2ccc(S(N)(=O)=O)cc2C)c1 | RT-P225H | β-galactosidase | HeLa + HELA CD4+ | HXB2 | <0.01 µM
CCC[C@@]1(CCc2ccccc2)CC(O)=C([C@H](CC)c2cccc(NS(=O)(=O)c3ccc(C(F)(F)F)cn3)c2)C(=O)O1 | L10F I47V | reporter gene | MT-4 | T21055 | 13903 nM
CC1(C)CC=C(c2cn(-c3nccc(C(=O)NC4CCC(N5CC6CCC(C5)O6)CC4)n3)c3ccc(F)c([C@H](OC(C)(C)C)C(=O)O)c23)CC1 | D167E | luminescence | MT-4 | NL4-3 | 0.0033 µM
Cc1cc(OCCCS(N)(=O)=O)ccc1NC(=O)COc1ccc(Cl)cc1C(=O)c1cc(F)cc(C(F)(F)F)c1 | RT-P225H | β-galactosidase | HeLa + HELA CD4+ | HXB2 | <0.01 µM
COCCOc1ccc(-c2cnc(C)c([C@H](OC(C)(C)C)C(=O)O)c2N2CCC(C)(C)CC2)nc1 |  | luminescence | MT-2 | NL4-3 | 0.0114 µM
CC(C)C1=C2[C@H]3CC[C@@H]4[C@@]5(C)CC[C@H](OC(=O)[C@H]6C[C@@H](C(=O)O)C6(C)C)C(C)(C)[C@@H]5CC[C@@]4(C)[C@]3(C)CC[C@@]2(CC(=O)NC2(CNC(=O)c3ccc(Cl)cc3)CCC2)CC1=O |  | p24 / ELISA | MT-2 | 92HT599 | <1 µM
CC1CC(C)CN(S(=O)(=O)c2ccccc2[N+](=O)[O-])C1 |  | GFP / fluorescence | HeLa | C-98IN022 | 2.65 µM
Cc1cc(C#N)cc(C(=O)c2cc(Cl)ccc2OCC(=O)Nc2ccc(S(N)(=O)=O)cc2C)c1 | RT-K103N P225H | β-galactosidase | HeLa + HELA CD4+ | HXB2 | <0.01 µM
CC(C)C1=C2[C@H]3CC[C@@H]4[C@@]5(C)CC[C@H](OC(=O)[C@H]6C[C@@H](C(=O)O)C6(C)C)C(C)(C)[C@@H]5CC[C@@]4(C)[C@]3(C)CC[C@@]2(CCNCC(C)(C)NC(=O)c2ccncn2)CC1=O |  | p24 / ELISA | MT-2 | 92HT599 | <1 µM
Cc1ncc(-c2ccc(OCC3CCC3)cn2)c(N2CCC(C)(C)CC2)c1[C@H](OC(C)C)C(=O)O |  | luminescence | MT-2 | NL4-3 | 0.005 µM
CC(C)C1=C2[C@H]3CC[C@@H]4[C@@]5(C)CC[C@H](OC(=O)[C@H]6C[C@@H](C(=O)O)C6(C)C)C(C)(C)[C@@H]5CC[C@@]4(C)[C@]3(C)CC[C@@]2(CCNCC(C)(C)NC(=O)CN2CCS(=O)(=O)CC2)CC1=O |  | p24 / ELISA | MT-2 | 92HT599 | <1 µM
Cc1ccc(OCCNc2ccc(-c3cnc(C)c([C@H](OC(C)(C)C)C(=O)O)c3N3CCC(C)(C)CC3)cn2)cc1 |  | luminescence | MT-2 | NL4-3 | 0.002 µM
Cc1nc2ccccc2c(-c2cc(F)c3c(c2C)CCCO3)c1[C@H](OC(C)(C)C)C(=O)O | G140S/Q148H | luminescence | MT-4 | NL4-3 | 0.025 µM
Cc1ncc(-c2ccc(NCCOc3ccc(F)cc3Cl)nc2)c(N2CCC(C)(C)CC2)c1[C@H](OC(C)(C)C)C(=O)O |  | luminescence | MT-2 | NL4-3 | 0.004 µM
Cc1cc(N2CCS(=O)CC2)ccc1NC(=O)COc1ccc(Cl)cc1C(=O)c1cccs1 | RT-K103N | β-galactosidase | HeLa + HELA CD4+ | HXB2 | 0.011–0.1 µM
Cc1ncc(-c2ccc(N(C)CCOc3ccc(C(N)=O)cc3)cn2)c(N2CCC(C)(C)CC2)c1[C@H](OC(C)(C)C)C(=O)O |  | luminescence | MT-2 | NL4-3 | 0.5012 µM
O=C(COc1ccc(Cl)cc1C(=O)c1ccccc1)Nc1ccc(-n2cncn2)cc1 | RT-Y181C | cytopathic effect / propidium iodide | MT-4 | Nevirapine-resistant (RT Y181C) | 0.101–1 µM

The last 2 rows once more:

Cc1ncc(-c2ccc(N(C)CCOc3ccc(C(N)=O)cc3)cn2)c(N2CCC(C)(C)CC2)c1[C@H](OC(C)(C)C)C(=O)O ; read by: luminescence ; cells: MT-2 ; strain or isolate: NL4-3 ; result: 0.5012 µM
O=C(COc1ccc(Cl)cc1C(=O)c1ccccc1)Nc1ccc(-n2cncn2)cc1 ; mutations: RT-Y181C ; read by: cytopathic effect / propidium iodide ; cells: MT-4 ; strain or isolate: Nevirapine-resistant (RT Y181C) ; result: 0.101–1 µM